Measurements reported in PubChem BioAssay AID624099 (ICCB-Longwood, 2012).
Here is one part, drawn at random, of about 21,000 reagents tested. 497 of them (2.4%) count as active. 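Higher z means weaker E2 silencing; only reporter increases were scored, and knock-downs that hurt cell survival may mask genuine repressor factors.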 Reagents against one gene are numbered here.

- Purpose: 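Host factors E2 relies on to silence an HPV18 LCR reporter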 (primary screen)
- Cell system: human C33A cervical carcinoma cells (HPV-negative) stably expressing BPV1 E2 and an HPV18 LCR luciferase reporter
- Knock-down reagent: siRNA pool against human genes, 40 nM
- Duration: 72 h
- Detection: 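HPV18 LCR reporter light per well, converted to plate-wise z-scores that exclude control wells, and averaged over triplicate plates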
- Reading the numbers: mean z-score and z-score: higher = stronger reporter signal, weaker E2 silencing
- Active means: 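Mean z ≥ 2 together with z ≥ 2 in two or more of the three replicates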

Gene,reagent,mean z-score,"z-score, replicate A","z-score, replicate B","z-score, replicate C",call
BCAM (basal cell adhesion molecule (Lutheran blood group)),1,-0.78,-0.67,-0.86,-0.8,inactive
EFNB2 (ephrin B2),1,-0.04,-0.29,0.07,0.1,inactive
DEFA1 (defensin alpha 1),1,-1.06,-1.11,-1.03,-1.03,inactive
MRPL18 (mitochondrial ribosomal protein L18),1,-0.44,-0.23,-0.62,-0.48,inactive
H4C12 (H4 clustered histone 12),1,0.62,0.86,0.39,0.61,inactive
LOC401072 (retired record),1,0.2,-0.04,0.44,0.22,inactive
GATA5 (GATA binding protein 5),1,-1.78,-1.8,-1.7,-1.85,inactive
COQ9 (coenzyme Q9),1,0.48,0.58,0.1,0.77,inactive
LOC83459 (retired record),1,1.84,2,1.54,1.98,inactive
ORM1 (orosomucoid 1),1,-0.17,-0.14,-0.28,-0.09,inactive
ZNF233 (zinc finger protein 233),1,-0.05,0.22,-0.42,0.05,inactive
CTTNBP2 (cortactin binding protein 2),1,-0.13,-0.28,-0.36,0.25,inactive
NKIRAS1 (NFKB inhibitor interacting Ras like 1),1,-0.69,-0.76,-0.51,-0.8,inactive
LOC388763 (retired record),1,-0.76,-0.36,-1.1,-0.81,inactive
RABGEF1 (RAB guanine nucleotide exchange factor 1),1,-0.88,-1.09,-0.94,-0.62,inactive
"ABHD10 (abhydrolase domain containing 10, depalmitoylase)",1,-0.29,-0.63,-0.03,-0.21,inactive
GRIK5 (glutamate ionotropic receptor kainate type subunit 5),1,0.03,-0.13,0.06,0.16,inactive
ATXN2 (ataxin 2),1,-1.33,-1.62,-1.24,-1.13,inactive
CLCN5 (Cl-/H+ antiporter 5),1,-0.65,-0.48,-0.7,-0.78,inactive
TRPV2,1,0.45,0.54,0.56,0.26,inactive
CPNE3 (copine 3),1,-0.36,-0.4,-0.35,-0.34,inactive
F12 (coagulation factor XII),1,0.11,0.08,0.25,-0.01,inactive
LOC441540 (retired record),1,-1,-1.24,-0.92,-0.84,inactive
LOC389669 (retired record),1,-0.52,-0.88,-0.42,-0.26,inactive
EFHD1 (EF-hand domain family member D1),1,-0.26,-0.6,-0.12,-0.06,inactive
ZC3H7B (zinc finger CCCH-type containing 7B),1,-0.17,-0.36,-0.35,0.21,inactive
RPL18A (ribosomal protein L18a),1,-1.42,-1.35,-1.29,-1.61,inactive

Next part (2 carried over from the part before).
Gene,reagent,mean z-score,"z-score, replicate A","z-score, replicate B","z-score, replicate C",call
ZC3H7B (zinc finger CCCH-type containing 7B),1,-0.17,-0.36,-0.35,0.21,inactive
RPL18A (ribosomal protein L18a),1,-1.42,-1.35,-1.29,-1.61,inactive
LRRN1 (leucine rich repeat neuronal 1),1,-0.53,-0.33,-1.01,-0.26,inactive
COL14A1 (collagen type XIV alpha 1 chain),1,-0.49,-0.65,-0.39,-0.43,inactive
THEMIS2 (thymocyte selection associated family member 2),1,1.43,1.29,1.24,1.75,inactive
CPZ (carboxypeptidase Z),1,-0.51,-0.21,-0.58,-0.73,inactive
AP3M2 (adaptor related protein complex 3 subunit mu 2),1,0.39,0.15,0.13,0.88,inactive
SELENOI (selenoprotein I),1,-1.06,-0.92,-1.14,-1.14,inactive
ABCA4 (ATP binding cassette subfamily A member 4),1,-0.83,-0.62,-0.81,-1.07,inactive
FIBIN (fin bud initiation factor homolog),1,-0.34,-0.36,-0.4,-0.27,inactive
OR4A16 (olfactory receptor family 4 subfamily A member 16),1,1.2,1.34,0.89,1.38,inactive
CNOT8 (CCR4-NOT transcription complex subunit 8),1,-0.67,-0.82,-0.72,-0.48,inactive
LBP (lipopolysaccharide binding protein),1,0.89,1,0.82,0.84,inactive
TCF12-DT (TCF12 divergent transcript),1,1.89,1.67,1.6,2.39,inactive
PLEKHG7 (pleckstrin homology and RhoGEF domain containing G7),1,1.13,1.02,0.99,1.37,inactive
PLEKHG7 (pleckstrin homology and RhoGEF domain containing G7),2,-0.51,-0.24,-0.49,-0.8,inactive
TNPO1 (transportin 1),1,-0.07,0.08,-0.2,-0.09,inactive
NRGN (neurogranin),1,0.65,0.88,0.48,0.6,inactive
FAM151A (family with sequence similarity 151 member A),1,-0.31,-0.62,-0.05,-0.25,inactive
VAC14 (VAC14 component of PIKFYVE complex),1,2.35,2.68,2.02,,active
VAC14 (VAC14 component of PIKFYVE complex),2,0.32,0.18,0.26,0.53,inactive
PCBP3 (poly(rC) binding protein 3),1,-1.26,-1.07,-1.03,-1.67,inactive
KRTCAP2 (keratinocyte associated protein 2),1,2.1,2.41,1.49,2.39,active
SANBR (SANT and BTB domain regulator of CSR),1,-0.26,-0.28,-0.2,-0.3,inactive
RAD1 (RAD1 checkpoint DNA exonuclease),1,0.59,0.62,0.68,0.47,inactive
FOLH1 (folate hydrolase 1),1,0.47,0.47,0.48,0.45,inactive
HYOU1 (hypoxia up-regulated 1),1,-0.83,-0.46,-1.25,-0.78,inactive
C15orf32 (chromosome 15 putative open reading frame 32),1,-0.41,-1.07,-0.09,-0.07,inactive
ANKRD42 (ankyrin repeat domain 42),1,-1.09,-1.3,-0.62,-1.35,inactive
ARSA (arylsulfatase A),1,0.91,0.65,1.32,0.76,inactive
UBE4B (ubiquitination factor E4B),1,-0.25,-0.27,-0.38,-0.09,inactive
IBSP (integrin binding sialoprotein),1,-0.83,-0.8,-0.5,-1.18,inactive
ELOVL2 (ELOVL fatty acid elongase 2),1,0.3,-0.32,0.27,0.96,inactive
TCF15 (transcription factor 15),1,0.43,0.37,0.41,0.52,inactive
CD24 (CD24 molecule),1,0.42,0.59,0.22,0.45,inactive
LOC402671 (retired record),1,-0.98,-0.52,-1.09,-1.31,inactive
EPPK1 (epiplakin 1),1,0.58,0.44,0.61,0.67,inactive
ARL5C (ARF like GTPase 5C),1,-1.32,-1.35,-1.47,-1.16,inactive
XG (Xg glycoprotein (Xg blood group)),1,-0.14,-0.1,0.18,-0.51,inactive
LINC02159 (long independently transcribed non-coding RNA 2159),1,-0.27,-0.48,-0.33,0,inactive
GSTK1 (glutathione S-transferase kappa 1),1,1.28,1.03,1.34,1.46,inactive
SPRR2A (small proline rich protein 2A),1,0.36,0.55,0.18,0.34,inactive
KCTD18 (potassium channel tetramerization domain containing 18),1,0.81,1.03,0.67,0.73,inactive
NKX6-3 (NK6 homeobox 3),1,-0.91,-0.88,-0.97,-0.89,inactive
DTWD2 (DTW motif tRNA-uridine aminocarboxypropyltransferase 2),1,-0.02,0.28,-0.02,-0.32,inactive
SP6 (Sp6 transcription factor),1,-0.95,-1.02,-0.85,-0.97,inactive
MLXIPL (MLX interacting protein like),1,-0.57,-0.57,-0.78,-0.38,inactive
TRIM58 (tripartite motif containing 58),1,-0.8,-0.82,-0.68,-0.89,inactive
